For the assay, the target named is NA of A/fox/Michigan/22-014536-004/2022 (del50-70) (Influenza A virus, UniProt Q9Q0U7). In kind it is biochemical, influenza A(H5N1) virus. The conditions noted are these: read-out: Mean IC50 ± SD.

As to oseltamivir carboxylate, the IC50 came out at 2.55 nM.

The IC50 is the concentration needed to halve the response being measured.

The values are drawn from paper PMC10508830 (Antiviral research, 2023).
